Laboratory results: the supplement of paper PMC9931576
Human monoclonal antibodies against the spike receptor-binding domain (heavy:light variable regions). IC50 against pseudoviruses bearing the spike of naturally observed variants; lower = stronger; >10 µg/ml means not reached at the top dose. No active / inactive call. The stated detection limit is 0.0005 µg/ml; values near or below 0.001 µg/ml lie at the floor of the assay.

How the values were obtained:
Assay in all cases: pseudovirus neutralization IC50; higher = weaker neutralization
[1] = target: SARS-CoV-2 Omicron BA.1 spike pseudovirus
Description: (§1)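 Single-round VSV luciferase pseudovirus mixed with antibody dilutions for 1 h and put on Huh-7 cells for about a day; IC50 from the dose curve.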

[2] = target: SARS-CoV-2 Omicron BA.2 spike pseudovirus
Description: as §1

[3] = target: SARS-CoV-2 Omicron BA.2.75 spike pseudovirus
Description: as §1

[4] = target: SARS-CoV-2 Omicron BA.5 spike pseudovirus
Description: as §1

[5] = target: SARS-CoV-2 Omicron BQ.1.1 spike pseudovirus
Description: as §1

[6] = target: SARS-CoV-2 Omicron XBB spike pseudovirus
Description: as §1

[7] = target: SARS-CoV-2 early D614G spike pseudovirus
Description: as §1

B1: BD56-212 (protein)
chain 1: EVQLVQSGAEVKKPGESLKISCKGSGYNFPNFWVGWVRQMPGKGLEWMGIIYPDDSDTRYNPSFQGHVTISADKSISTAYLQWSSLKASDTAMYYCARQGLPYCDGDCYNNWFDPWGQGTLVTVSS
chain 2: QSVLTQPPSVSGAPGQRVTISCTGGSSNIGADYDVQWYQQLPGTAPKLLIYRNNNRPSGVPDRFSGSKSGTSASLAISGLQAEDEADYYCQSYDRSLSGDVVFGGGTKLTVL
In the case of B1, the “pseudovirus neutralization IC50” value [1] is reported as 5.45 µg/mL, the “pseudovirus neutralization IC50” value [2] is reported as 3.78 µg/mL and the “pseudovirus neutralization IC50” value [3] is reported as 2.52 µg/mL. The “pseudovirus neutralization IC50” value [4] was 3.89 µg/mL, the “pseudovirus neutralization IC50” value [5] was 2.77 µg/mL and the “pseudovirus neutralization IC50” value [6] was 3.25 µg/mL. The “pseudovirus neutralization IC50” value [7] was 1.65 µg/mL.

B2: BD56-190 (protein)
chain 1: QVQLQESGPGLVKPSQTLSLICTVSGGSISSSGYYWSWIRQHPGKGLEWIGYIYYSGTTYYHPSLKSRVFMSLDTSKNQFSLKLSSVTAADTAVYYCAGNDGDPDYFDYWGLGTLVTVSS
chain 2: EIVLIQSPATLSLSPGERATLSCRASQSVNSYLAWYQQKPGQAPSLLIYDASYRATGIPARFSGSGSGTDFTLTISSLEPEDFAVYYCQQRFSWPPTFGQGTRLEIK
For B2, the “pseudovirus neutralization IC50” value [1] was over 10 µg/mL, the “pseudovirus neutralization IC50” value [2] was over 10 µg/mL and the “pseudovirus neutralization IC50” value [3] was over 10 µg/mL. For the same binder, the “pseudovirus neutralization IC50” value [4] was over 10 µg/mL, the “pseudovirus neutralization IC50” value [5] was over 10 µg/mL and the “pseudovirus neutralization IC50” value [6] was over 10 µg/mL. For the same binder, the “pseudovirus neutralization IC50” value [7] was over 10 µg/mL.

B3: BD56-186 (protein)
chain 1: EVQLVESGGGLVKPRGSLRLSCAASGFTFSSAWMNWVRQAPGKGLEWVGRIKSEIDGGTTDYAAPVKGRFTISRDDSKNTLYLQMNSLKTEDTAVYYCTVSDVIRFYDYGMDVWGQGTTVTVSS
chain 2: DIQMTQSPSTLSASVGDRVTITCRASQSISRWLAWYQQKPGKAPKLLIYKASSLQSGVPSRFSGSGSGTEFTLTISSLQPDDFATYYCQQYNSYLYTFGQGTKLEIK
For B3, the “pseudovirus neutralization IC50” value [1] was 3.04 µg/mL, the “pseudovirus neutralization IC50” value [2] was 3.04 µg/mL and the “pseudovirus neutralization IC50” value [3] was 3.69 µg/mL. The “pseudovirus neutralization IC50” value [4] was 3.55 µg/mL, the “pseudovirus neutralization IC50” value [5] was over 10 µg/mL and the “pseudovirus neutralization IC50” value [6] was over 10 µg/mL. For the same binder, the “pseudovirus neutralization IC50” value [7] was over 10 µg/mL.

B4: BD56-203 (protein)
chain 1: QVQLVQSGGEVKKPGASVRVSCKASGYTFSGYGISWVRQAPGQGLEWMGWISAQNGNTNYAQKLQGRVTMTTDTSTNTAYMELRSLKSDDTAVYFCARVLDSGFLWFEDSYFFDHWGQGTRVTVSS
chain 2: EIVLTQSPGTLSLSPGERATLSCRASQSISSSYLAWFQQKPGQAPRLLIYGAFSRATGVPDRFSGSGSGTDFTLTISRLEPGDFAVYYCQQYGSSPWTFGQGTKVEIK
B4 was tested, and the “pseudovirus neutralization IC50” value [1] was over 10 µg/mL, the “pseudovirus neutralization IC50” value [2] was over 10 µg/mL and the “pseudovirus neutralization IC50” value [3] was over 10 µg/mL. For the same binder, the “pseudovirus neutralization IC50” value [4] was over 10 µg/mL, the “pseudovirus neutralization IC50” value [5] was over 10 µg/mL and the “pseudovirus neutralization IC50” value [6] was over 10 µg/mL. For the same binder, the “pseudovirus neutralization IC50” value [7] was over 10 µg/mL.

B5: BD56-182 (protein)
chain 1: QVQLQESGPGLVKPSETLSLTCTVSGGSINYYYWSWIRQPPGKGLEWIGYIFYTGTTNYNPSLKSRVTISVDTSKNQFSLRLSSVTAADTAVYYCARQREEYYFDISGYHLDCWGQGTLVTVSS
chain 2: DIQMTQSPSSLSASVGDRVTITCQASQDIRNYLNWYQQKPGKAPKLLIYDASNLETGVPSRFSGSRSGTDFTFTVSSLQPEDIATYYCQQYDNLLGITFGQGTRLEIK
For B5, the “pseudovirus neutralization IC50” value [1] was over 10 µg/mL, the “pseudovirus neutralization IC50” value [2] was over 10 µg/mL and the “pseudovirus neutralization IC50” value [3] was over 10 µg/mL. For the same binder, the “pseudovirus neutralization IC50” value [4] was over 10 µg/mL, the “pseudovirus neutralization IC50” value [5] was over 10 µg/mL and the “pseudovirus neutralization IC50” value [6] was over 10 µg/mL. The “pseudovirus neutralization IC50” value [7] was over 10 µg/mL.

B6: BD56-193 (protein)
chain 1: EVQLVQSGAEVKKPGESLRISCKGSGYMFTRHWIGWVRQMPGKGLEWMGIIYPGDSDTRYSPSFQGHVTISVDKSTSTAYLQWSSLKASDTAMYYCARHETIFGVVTPIDYWGQGTLVTVSS
chain 2: QPVLTQPPSSSASPGESARLTCTLPSDISVGSYNIYWYQQKPGSPPRYLQSYLDSDKGQGSGVPSRFSVSKDASANTGILLISGLQSEDEADYYCMTWPSHSYVVFGGGTKLTVL
In the case of B6, the “pseudovirus neutralization IC50” value [1] is reported as over 10 µg/mL, the “pseudovirus neutralization IC50” value [2] is reported as over 10 µg/mL and the “pseudovirus neutralization IC50” value [3] is reported as over 10 µg/mL. The “pseudovirus neutralization IC50” value [4] was over 10 µg/mL, the “pseudovirus neutralization IC50” value [5] was over 10 µg/mL and the “pseudovirus neutralization IC50” value [6] was over 10 µg/mL. For the same binder, the “pseudovirus neutralization IC50” value [7] was over 10 µg/mL.
